This is an account of results in PMC7477763.

Protein sequences, listed by entry. Tags and fused reporters are not part of them.
UniProt P0CG48, whole entry, looked up: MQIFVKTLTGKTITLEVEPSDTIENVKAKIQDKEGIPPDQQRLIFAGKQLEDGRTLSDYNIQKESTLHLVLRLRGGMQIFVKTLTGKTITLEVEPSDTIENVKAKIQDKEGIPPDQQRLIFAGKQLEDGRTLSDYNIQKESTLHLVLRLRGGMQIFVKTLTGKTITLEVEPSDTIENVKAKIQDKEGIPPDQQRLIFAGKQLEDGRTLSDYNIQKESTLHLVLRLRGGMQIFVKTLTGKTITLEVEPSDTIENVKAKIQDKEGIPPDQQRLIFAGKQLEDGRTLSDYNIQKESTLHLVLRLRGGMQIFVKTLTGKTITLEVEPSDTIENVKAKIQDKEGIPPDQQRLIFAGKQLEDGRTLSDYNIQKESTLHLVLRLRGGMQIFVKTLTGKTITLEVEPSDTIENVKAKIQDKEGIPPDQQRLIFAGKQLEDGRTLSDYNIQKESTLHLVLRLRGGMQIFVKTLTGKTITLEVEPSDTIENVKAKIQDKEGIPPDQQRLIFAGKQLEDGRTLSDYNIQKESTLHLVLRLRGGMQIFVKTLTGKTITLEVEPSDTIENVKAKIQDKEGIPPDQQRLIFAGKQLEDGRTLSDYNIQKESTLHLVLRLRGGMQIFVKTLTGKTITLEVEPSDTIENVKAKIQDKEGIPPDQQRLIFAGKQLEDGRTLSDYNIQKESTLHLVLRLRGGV

This series deals with B-Ub-VME (biotin-6-Ahx-Ub-VME activity-based probe) (UniProt P0CG48).

In turn, “Middle East respiratory syndrome papain-like protease (MERS PLpro), recombinant” yielded a kobs/I of 7660 ± 475 M^–1 s^–1.
